Results of unrelated studies side by side (data: NIAID ChemDB).

All rows: whole-cell or culture tests; agent: HIV-1; read-out: EC90

Conditions beyond the fields shown may differ between rows. ECn is the concentration giving n% inhibition of infection, replication or growth. Two numbers with a dash give a range or band. Blank or dashed fields: not listed here.

structure	cell line	method	changes	strain	result
CC(=O)Nc1ccc2c(c1)C(C#CCC(C)C)(C(F)(F)F)OC(=O)N2	MT-2			RF	0.5 µM
C[C@@H]1CCO[C@H]2Cn3cc(C(=O)NCc4ccc(F)cc4F)c(=O)c(O)c3C(=O)N12	MT-4	luminescence		NL4-3	0.0063 µM
Cn1cc(C(=O)N2CCC(c3cc(CCOc4ccccc4Cl)[nH]n3)C2)cn1	TZM-bl	luciferase		BaL	18.65 µM
Cc1cc(C)cc(S(=O)(=O)c2c(C(N)=O)[nH]c3c(Cl)cc(Cl)cc23)c1	MT-4	cytopathic effect / MTT		IIIB	1.2 µM
CCCCOC(=O)c1cc(O)c(O)c(O)c1	PBMC	p24 / ELISA			0.005–0.01 µg/mL
CCCC#CC1(C(F)(F)F)OC(=O)Nc2ccc([N+](=O)[O-])cc21	MT-2			RF	0.00223 µM
O=Cc1ccc2n1CC(=O)Nc1ccccc1-2	MT-2	cytopathic effect / XTT		IIIB	>50 µg/mL
Cc1ccc(Sc2c([N+](=O)[O-])ncn2CC2=CC(=O)C(=O)CN2C)cc1	MT-4	MTT		IIIB	>29.8 µM
C[C@@]1(F)[C@H](O)[C@@H](CO)O[C@H]1n1ccc2c(N)nc(N)nc21	PBMC				>100 µM
C[C@@H]1CCO[C@H]2Cn3cc(C(=O)NCc4ccc(F)cc4F)c(=O)c(O)c3C(=O)N12	H9	luminescence		IIIB	0.0024 µM
Nc1ncnc2c1ncn2[C@@H]1O[C@H](CO)[C@H](O)[C@H]1O	C8166	syncytia			>5 µM
CNc1ncnc2c1c(F)cn2[C@H]1O[C@H](CO)[C@@H](O)[C@@]1(C)F	PBMC				>100 µM
O=C1Nc2ccc(Cl)cc2[C@@](C#CC2CC2)(C(F)(F)F)N1			RT-K103N Y181C		~0.025 µM
CC(C)(C)NC(=O)[C@@H]1CN(Cc2cccnc2)CCN1C[C@@H](O)C[C@@H](Cc1ccccc1)C(=O)N[C@H]1c2ccccc2C[C@H]1O	HEK293T	p24 / ELISA		LAI	0.0009–0.0018 µM
C[C@@]1(F)[C@H](O)[C@@H](CO)O[C@H]1n1cc(I)c2c(N)ncnc21	PBMC				>100 µM
O=C(C1CCCCC1)N1CCC(c2cc(CCOc3cccc(C(F)(F)F)c3)[nH]n2)C1	TZM-bl	luciferase		BaL	18.2 µM
CN1CC(=O)C(=O)C=C1Cn1cnc([N+](=O)[O-])c1Nc1ccc(Br)cc1	MT-4	MTT		IIIB	>6.8 µM
CCCC#CC1(C(F)(F)F)OC(=O)Nc2ccc(N)cc21	MT-2			RF	0.04574 µM
COc1ccc(S(=O)(=O)N(CC(C)C)CC(O)CN(CC(C)C)S(=O)(=O)c2ccccc2)cc1	CEM	p24		IIIB	1 µM
O=C1Nc2ccc(Cl)cc2[C@@](/C=C/C2CC2)(C(F)(F)F)N1	MT-2	plaque count / virus yield		RF	0.0019 µM
O=Cc1ccc2n1[C@@H](Cc1ccccc1)C(=O)Nc1ccccc1-2	MT-2	cytopathic effect / XTT		IIIB	>2.5 µg/mL
N[C@@H](CCC(=O)O)C(=O)N[C@@H](CCC(=O)O)C(=O)N[C@@H](CCC(=O)O)C(=O)O	CEM/MOLT-4	syncytia		MN	>100 µg/mL
O=C1Nc2ccccc2-c2cccn2[C@H]1Cc1ccc(O)cc1	MT-2	cytopathic effect / XTT		IIIB	>23 µg/mL
C[C@@]1(F)[C@H](O)[C@@H](CO)O[C@@H]1n1cc(I)c2c(N)ncnc21	PBMC				>100 µM
CC(C)CN(CC(O)CCN1C[C@H]2CCCC[C@H]2C[C@H]1C(=O)NC(C)(C)C)S(=O)(=O)c1ccccc1	CEM	p24		IIIB	1 µM
Cc1c(O)cccc1C(=O)N[C@@H](CSc1ccccc1)[C@H](O)CN1C[C@H]2SCC[C@H]2C[C@H]1C(=O)NC(C)(C)C	CEM	cytopathic effect / XTT		SN 123	0.0097 µM
O=C(c1ccccc1)N(CCc1ccccc1)C[C@H](O)CN(CC1CCCC1)S(=O)(=O)Cc1ncc[nH]1	CEM	p24		IIIB	1 µM
Cc1cn([C@H]2CO[C@@H](COP(=O)(N[C@@H](C)C(=O)OCc3ccccc3)Oc3ccccc3Cl)O2)c(=O)[nH]c1=O	PBMC	RT activity	RT-M184V	LAI	4.7 µM
O=C1Cn2cccc2-c2ccccc2N1	MT-2	cytopathic effect / XTT		IIIB	>50 µg/mL
C[C@@]1(F)[C@H](O)[C@@H](CO)O[C@@H]1n1cc(Cl)c2c(N)ncnc21	PBMC				>100 µM
COc1ccnc2[nH]cc(C(=O)C(=O)N3C4CCCC3CN(C(=O)c3ccccc3)C4)c12	TZM-bl	luciferase		PVO	18 µM
CCCCCCCCCCCCCCCCCCOCCOP(=O)(N[C@@H](C)C(=O)OC)OC[C@@H]1OC[C@H](n2cc(C)c(=O)[nH]c2=O)O1	PBMC	RT activity	RT-M184V	LAI	35.1 µM
CN1CC(=O)C(=O)C=C1Cn1cnc([N+](=O)[O-])c1Nc1ccccc1	MT-4	MTT		IIIB	>250 µM
C#Cc1cn([C@H]2O[C@H](CO)[C@@H](O)[C@@]2(C)F)c2ncnc(N)c12	PBMC				>100 µM
CC(C)CN(CC(O)CCN1CSC[C@@H]1C(=O)NC(C)(C)C)S(=O)(=O)c1ccccc1	CEM	p24		IIIB	1 µM
COc1ccnc2[nH]cc(C(=O)C(=O)N3C4CC3CN(C(=O)c3ccccc3)C4)c12	TZM-bl	luciferase		AC10	250 µM
C#Cc1cn([C@@H]2O[C@H](CO)[C@@H](O)[C@@]2(C)F)c2ncnc(N)c12	PBMC				>100 µM
COC(=O)[C@H](C)NP(=O)(OC[C@@H]1OC[C@H](n2cc(C)c(=O)[nH]c2=O)O1)Oc1ccc(Cl)cc1Cl	PBMC	RT activity	RT-M184V	LAI	2.8 µM
C[C@@]1(F)[C@H](O)[C@@H](CO)O[C@H]1n1cc(Br)c2c(N)ncnc21	PBMC				>100 µM
O=C1Nc2ccc(F)c(F)c2[C@@](/C=C/C2CC2)(C(F)(F)F)N1			RT-K103N P225H		~0.19 µM
Cc1cn([C@H]2C[C@H](N=[N+]=[N-])[C@@H](CO)O2)c(=O)[nH]c1=O	MT-4	MTT		IIIB	0.0064 µM
COC(=O)CNP(=O)(OC[C@@H]1OC[C@H](n2cc(C)c(=O)[nH]c2=O)O1)Oc1ccccc1	PBMC	RT activity	RT-M184V	LAI	14.2 µM
COc1ccc(S(=O)(=O)N(CC(O)CN(Cc2ccccc2)C(=O)NC(C)(C)C)CC2CCCC2)cc1	CEM	p24		IIIB	1 µM
Cc1cn([C@H]2CO[C@@H](COP(=O)(N[C@@H](C)C(=O)OCc3ccccc3)Oc3ccccc3)O2)c(=O)[nH]c1=O	PBMC	RT activity	RT-M184V	LAI	4.6 µM
C[C@H]1[C@H](O)[C@@H](C)/C=C/C=C/C=C/C=C/C=C/C=C/C=C/[C@H](O[C@@H]2O[C@H](C)[C@@H](O)[C@H](N)[C@@H]2O)C[C@@H]2O[C@](O)(C[C@@H](O)C[C@@H](O)CC[C@H](O)[C@@H](O)C[C@@H](O)CC(=O)O[C@H]1C)C[C@H](O)[C@H]2C(=O)O	PBMC	p24 / RT activity		92TH026 CLADE B R5 (NSI)	>25 µM
C#C[C@]1(CO)O[C@@H](n2cnc3c(N)nc(F)nc32)C[C@@H]1O	PBMC	p24 / ELISA		NL4-3	>0.066 µM
Cc1cc(C)cc(S(=O)(=O)c2c(C(N)=O)[nH]c3c(Cl)cc(Cl)cc23)c1	MT-4	cytopathic effect / MTT / p24		IIIB	1.2 µM